Experimental data: PubChem BioAssay AID504761 (Drosophila RNAi Screening Center, 2011)

- Screen: 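Fly genes whose silencing reduces dengue virus type 2 infection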 (primary screen)
- Cell system: D.Mel-2 cells from Drosophila
- Reagents: long dsRNA against Drosophila genes
- Treatment: infection with dengue virus type 2; dose and infection time not stated
- Detection: 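Per well on two replicate plates, imaging gave the percent of cells positive for viral envelope protein, ranked by infection, and a nuclear count of cells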
- Direction: infection score: higher = more virus-infected cells; cell count: higher = more cells in the well
- Active means: 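Low infection ranks in the two replicates (chance level up to 0.065) followed by a retest with a 1.5-fold or larger significant decrease, p below 0.05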
- Meaning of the calls: active = confirmed: knock-down lowers infection; inactive = not picked or not confirmed
In all, the deposit lists about 22,000 reagents; below is a random part of those that have a named target and a result. In the full data, 116 (0.52%) got an active call. 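Calls depend on retest data that are not deposited; infection was ranked per plate without normalising between plates; the unit of the infection score is not given.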 Raw values vary from plate to plate and are shown uncorrected. Not stated in the record: the amount of reagent, the time to read-out.

Target gene | DRSC id | infection score, replicate 1 | infection score, replicate 2 | cell count, replicate 1 | cell count, replicate 2 | call
side (GeneID 43300) | DRSC14523 | 7.88 | 18.2 | 3174 | 6142 | inactive
side (GeneID 43300) | DRSC14716 | – | 6.48 | 328 | 7162 | inactive
side (GeneID 43300) | DRSC14717 | 7.67 | 3.39 | 6465 | 855 | inactive
side (GeneID 43300) | DRSC14718 | 1.71 | 5.29 | 6770 | 3385 | inactive
side (GeneID 43300) | DRSC14721 | 2.05 | 6.82 | 6869 | 6397 | inactive
z (GeneID 31230) | DRSC23134 | 2.79 | 6.45 | 5946 | 6167 | inactive
Rrp45 (GeneID 32665) | DRSC20198 | 11.8 | 19.7 | 4282 | 5003 | inactive
Rrp45 (GeneID 32665) | DRSC29319 | – | – | 298 | 342 | inactive
mRpS5 (GeneID 3355089) | DRSC21380 | 1.17 | 14.5 | 5552 | 4139 | inactive
fd102C (GeneID 43843) | DRSC17203 | 1.4 | 18.8 | 6278 | 5408 | inactive
fd102C (GeneID 43843) | DRSC26567 | 8.31 | 4.49 | 1890 | 3744 | inactive
Nep6 (GeneID 32234) | DRSC19877 | 6.8 | 4.98 | 6116 | 6064 | inactive
CG33257 (GeneID 2768960) | DRSC09917 | 2.86 | 2 | 6018 | 6188 | inactive
Kdsr (GeneID 43043) | DRSC14245 | 16.7 | 3.41 | 6591 | 6747 | inactive
AhcyL2 (GeneID 42043) | DRSC14107 | 2.99 | 2.52 | 6728 | 6900 | inactive
Etf-QO (GeneID 36031) | DRSC06111 | 7.35 | 27.6 | 5865 | 5746 | inactive
CG9855 (GeneID 40556) | DRSC12344 | 18.7 | 7.59 | 4809 | 6115 | inactive
CG9855 (GeneID 40556) | DRSC25547 | 22.2 | 15.9 | 6854 | 5578 | inactive
CG8726 (GeneID 35758) | DRSC07250 | 22.6 | 25.9 | 5458 | 5632 | inactive
CG8726 (GeneID 35758) | DRSC26566 | 6.56 | 3.63 | 5728 | 5542 | inactive
CG10163 (GeneID 38728) | DRSC09710 | 2.31 | 6.25 | 5851 | 5810 | inactive
Or42b (GeneID 35516) | DRSC04913 | 12.3 | 15 | 5753 | 6841 | inactive
Or42b (GeneID 35516) | DRSC27273 | 5.65 | 13.1 | 6651 | 6299 | inactive
Nost (GeneID 8673992) | DRSC18037 | 2 | 6.08 | 6299 | 6431 | inactive
Nost (GeneID 8673992) | DRSC18338 | 4.64 | 19.1 | 4960 | 5525 | inactive
Nost (GeneID 8673992) | DRSC26627 | 0.88 | 2.01 | 6235 | 6008 | inactive
Zip99C (GeneID 43533) | DRSC16320 | 8.68 | 7.09 | 1071 | 6938 | inactive

Looked up above:
side (GeneID 43300) [DRSC14523], infection score, replicate 2 → 18.2
For “cell count, replicate 2”, Or42b (GeneID 35516) [DRSC04913] has 6841
Value for Nep6 (GeneID 32234) [DRSC19877] in “call”: inactive
Result for side (GeneID 43300) [DRSC14717] under “infection score, replicate 1”: 7.67
Under “cell count, replicate 1”, Etf-QO (GeneID 36031) [DRSC06111] is entered as 5865
Result for Nost (GeneID 8673992) [DRSC18338] in “infection score, replicate 2”: 19.1

Next reagents:
Target gene | DRSC id | infection score, replicate 1 | infection score, replicate 2 | cell count, replicate 1 | cell count, replicate 2 | call
gudu (GeneID 34014) | DRSC02820 | 17.6 | 0.58 | 5775 | 693 | inactive
fun (retired record) (GeneID 5657936) | DRSC12300 | 13.4 | 5.3 | 3645 | 6189 | inactive
Syt4 (GeneID 40876) | DRSC12606 | 3.78 | 4.06 | 6344 | 6582 | inactive
mRpL22 (GeneID 32662) | DRSC19915 | 11.8 | 11.3 | 4478 | 4627 | inactive
mRpL22 (GeneID 32662) | DRSC26399 | 1.3 | 0.95 | 5762 | 5564 | inactive
CG43338 (GeneID 35117) | DRSC23362 | 1.39 | 3.41 | 6891 | 7145 | inactive
Tnpo (GeneID 38721) | DRSC11309 | 9.32 | 10.8 | 5247 | 5269 | inactive
Tnpo (GeneID 38721) | DRSC25104 | 3.26 | 2.74 | 6079 | 6236 | inactive
Rab40 (GeneID 32195) | DRSC19820 | 5.36 | 32.5 | 932 | 4374 | inactive
CG31272 (GeneID 326130) | DRSC16058 | 1.22 | 2.42 | 6163 | 6077 | inactive
Cdc7 (GeneID 31598) | DRSC18429 | 0.77 | 0.97 | 6359 | 6477 | inactive
Cdc7 (GeneID 31598) | DRSC27819 | 9.28 | 5.43 | 6129 | 6959 | inactive
CG4744 (GeneID 36485) | DRSC06887 | 18.4 | 24.4 | 5587 | 6128 | inactive
CG4744 (GeneID 36485) | DRSC28696 | 6.69 | 0.25 | 1286 | 395 | inactive
Ccz1 (GeneID 38455) | DRSC08439 | 1.38 | 1.13 | 6689 | 5775 | inactive
Tnpo-SR (GeneID 33465) | DRSC00546 | 2.8 | 1.39 | 5744 | 6118 | inactive
Mfe2 (GeneID 32582) | DRSC19869 | 2.43 | 5.49 | 864 | 6680 | inactive
Nach (GeneID 36864) | DRSC07478 | 10.9 | 2.18 | 6557 | 641 | inactive
ebi (GeneID 33212) | DRSC00816 | 6.44 | 1.86 | 5562 | 5542 | inactive
Myd88 (GeneID 35956) | DRSC06815 | 13.8 | 15.2 | 5711 | 6615 | inactive
Myd88 (GeneID 35956) | DRSC28830 | 6.67 | 20 | 1199 | 4633 | inactive
CG32750 (GeneID 326238) | DRSC18848 | 0.93 | 1.77 | 6154 | 5987 | inactive
CG15096 (GeneID 37170) | DRSC06525 | 2.71 | 3.69 | 6354 | 6637 | inactive
CG15096 (GeneID 37170) | DRSC29737 | 5.21 | 1.96 | 6894 | 6373 | inactive
CG34248 (GeneID 5740883) | DRSC09426 | 0.37 | 0.14 | 5896 | 5576 | active
CrebA (GeneID 39682) | DRSC11122 | 8.07 | 22.5 | 6146 | 6280 | inactive
HP1D3csd (GeneID 32906) | DRSC19548 | 2.24 | 0.91 | 6351 | 6138 | inactive
Stim (GeneID 32556) | DRSC20158 | 6.28 | 14.5 | 6623 | 5377 | inactive
Nepl17 (GeneID 43408) | DRSC14880 | 5.95 | 3.01 | 6484 | 6355 | inactive
Cngl (GeneID 32468) | DRSC20318 | 7.19 | 12.3 | 5772 | 5853 | inactive
Cngl (GeneID 32468) | DRSC23577 | 2.19 | 1.34 | 5467 | 5882 | inactive
